Results published in article PMC12202928, “Bidirectional interdomain crosstalk in a Porphyromonas gingivalis chimeric enzyme coordinates catalytic synergy for aromatic amino acid biosynthesis” (Frontiers in Microbiology, 2025).

Tests used:
Assay in all cases: purified protein
[1] = tested on: C=C(O[C@@H]1C=C(C(=O)O)C=C[C@H]1O)C(=O)O; conditions: 50 mM BTP pH 7.4, 37°C
[2] = tested on: O=C[C@H](O)[C@H](O)COP(=O)(O)O; conditions: 750 μM PEP, 100 μM MnSO4, 50 mM BTP pH 7.4, 37°C
C=C(OP(=O)(O)O)C(=O)O = conditions: 750 μM E4P, 100 μM MnSO4, 50 mM BTP pH 7.4, 37°C

## PgiDAH7PS-CM (Porphyromonas gingivalis ATCC 33277; E269A/E270A/E287A/R291A)
[1]
  Km: 81.1 ± 6.5 µM
  kcat: 1.04 s⁻¹
  kcat/Km: 13000 M⁻¹ s⁻¹
[2]
  Km: 511 ± 43 µM
  kcat: 1.28 ± 0.11 s⁻¹
  kcat/Km: 2500 M⁻¹ s⁻¹
C=C(OP(=O)(O)O)C(=O)O
  Km: 436 ± 46 µM
  kcat: 1.28 ± 0.11 s⁻¹
  kcat/Km: 2900 M⁻¹ s⁻¹
